Experimental data: paper PMC6009982, “Diaryl ethers with carboxymethoxyphenacyl motif as potent HIV-1 reverse transcriptase inhibitors with improved solubility” (Journal of Enzyme Inhibition and Medicinal Chemistry, 2017)
pIC50: −log10 of the molar value.

Tests used:
HIV-1 RT = HIV-1 RT (Human immunodeficiency virus type 1 group M subtype B, UniProt P04585); assay: HIV RT inhibitory activity, colorimetric Reverse Transcriptase Assay kit (Roche); type: biochemical; details: tested form: K salt; for pIC50: HIV-1 RT, 2 ng enzyme, at least two measurements
[1] = test system: HIV NL4-3-GFP-I in SupT1 cells; assay: Infection assay in SupT1 cells, GFP flow cytometry; type: cell-based, HIV-1; details: for Antiviral activity: at 10-fold lower concentration than threshold toxic concentration, tested form: K salt
[2] = test system: HIV NL4-3-GFP-I in CD4+ T cells; assay: Infection assay in CD4+ T cells, GFP flow cytometry; type: cell-based; details: read-out: IC50 (infection rate); primary CD4+ T cells, HIV-1, 72 h; tested form: K salt

| SMILES | pIC50 (HIV-1 RT) | Antiviral activity [1] | pIC50 ([1]; read-out: IC50 (infection rate), HIV-1, 72 h, tested form: K salt) | pIC50 [2] | Decrease of IC50 value relative to 8a (HIV-1 RT; chlorine moved from position 4 (8a) to 5 (8b)) |
| --- | --- | --- | --- | --- | --- |
| N#Cc1cc(Cl)cc(Oc2ccc(Cl)cc2OCC(=O)c2ccc(Oc3ccc(OCC(=O)O)cc3)cc2)c1 | 5.72 | + |  |  |  |
| N#Cc1cc(Cl)cc(Oc2cc(OCC(=O)c3ccc(Oc4ccc(OCC(=O)O)cc4)cc3)ccc2Cl)c1 | 6.44 | + | 6.60 | 6.60 |  |
| N#Cc1cc(Cl)cc(Oc2cc(Cl)ccc2OCC(=O)c2ccc(OCC(=O)O)cc2)c1 | 5.47 | – |  |  | about seven-fold decrease |
